Results reported in patent US20250152599A1 (priority 2020, published 2025).

Columns and labels:
MRC5 cells = assay: Cytotoxicity on MRC5 cells, CellTiter Glo, no virus infection; details: the first test (first round), 3 days
[1] = system: novel coronavirus (SARS-CoV-2); details: second round, 48 hours, replicate wells, listed as Phenylarsine oxide

O=[As]c1ccccc1 (stereo not drawn)
CC50 (MRC5 cells): 0.257 µM
FAM Ct value ([1]; 12.5 nM): 15.36 and 15.38
FAM Ct value ([1]; 50 nM): 17.41

“And” between values parts separate entries of the source, which are not always exact repeats. Identical values can stand only once. Like-named read-outs stand apart in the source and are kept apart here.
